Experimental findings from patent publication US8175860B2, “Method of inhibiting the growth of Helicobacter pylori” (priority 2009, dated 2012) are described below.

By UniProt entry, the sequences of proteins in these tests, tags left out.
UniProt P9WPY3, whole entry: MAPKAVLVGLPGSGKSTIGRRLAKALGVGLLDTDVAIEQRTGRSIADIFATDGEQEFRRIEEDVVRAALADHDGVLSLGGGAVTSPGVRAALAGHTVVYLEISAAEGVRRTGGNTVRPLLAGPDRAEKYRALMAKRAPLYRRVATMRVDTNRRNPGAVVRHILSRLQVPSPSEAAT

pIC50: −log10 of the molar value. Where only a bound is given, the exact number is not on record here.

The target of the assay is MtSK (M. tuberculosis shikimate kinase) (Mycobacterium tuberculosis, UniProt P9WPY3). The experiment in a line: Shikimate kinase inhibitor activity assay (pyruvate kinase/lactate dehydrogenase coupled), MtSK. In kind it is biochemical.

One may read the pIC50 as −log10 of the IC50, conventionally taken in molar units. A lower pIC50 goes with a high IC50.

Regarding `O=C(NNC(=O)C1c2ccccc2Oc2ccccc21)c1cccc([N+](=O)[O-])c1`, the pIC50 was under 4.30.
